# In-gel DMS probing of monomeric and dimeric HIV-1 RNA

Data from the supplement of Ye et al. 2022, doi:10.1038/s41594-022-00746-2.

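Randomly mutated transcripts starting with one, two or three G (1G, 2G, 3G), capped or uncapped, were folded for 30 min at 37 °C. Monomer and dimer bands were cut from native gels after folding in high salt (300 mM KCl, 5 mM MgCl2) or low salt (40 mM KCl, 0.1 mM MgCl2). Gel slices were treated with 170 mM dimethyl sulfate for 15 min at 37 °C and read by mutational profiling against an ethanol control.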

The 5' region of HIV-1 NL4-3 RNA (positions 1-437):
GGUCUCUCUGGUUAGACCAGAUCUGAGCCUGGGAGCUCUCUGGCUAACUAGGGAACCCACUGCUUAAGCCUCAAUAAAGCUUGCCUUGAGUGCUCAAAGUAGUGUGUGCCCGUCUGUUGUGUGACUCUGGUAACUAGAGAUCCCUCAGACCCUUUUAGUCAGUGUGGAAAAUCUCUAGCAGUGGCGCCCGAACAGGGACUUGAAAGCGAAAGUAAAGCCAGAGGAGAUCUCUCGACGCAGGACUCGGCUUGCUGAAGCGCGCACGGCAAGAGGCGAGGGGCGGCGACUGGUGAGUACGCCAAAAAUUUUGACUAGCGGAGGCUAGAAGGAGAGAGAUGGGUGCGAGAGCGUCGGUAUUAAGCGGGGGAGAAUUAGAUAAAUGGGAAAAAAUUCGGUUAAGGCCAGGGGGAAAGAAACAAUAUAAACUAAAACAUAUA

Scale: normalised reactivity, A and C only; low values point to paired or protected bases, higher values to unpaired ones. One numbering serves 1G, 2G and 3G. A position is written with its base.

position,domain,1G capped low-salt dimer,3G uncapped low-salt monomer
A423,none,0.42,0.37
A332,none,0.54,0.66
A430,none,0.55,0.50
C199,PBS,0.51,0.44
A404,none,0.26,0.26
A215,PBS,0.65,0.55
A96,PolyA,0.25,0.35
A314,SL3,0.05,0.04
A302,none,1.21,1.27
C58,PolyA,0.12,0.03
C417,none,0.80,0.77
C402,none,0.05,0.04
A26,TAR,0.25,0.08
C44,TAR,0.05,0.03
A136,PBS,0.10,0.10
A410,none,0.37,0.42
C69,PolyA,0.05,0.07
A268,SL1,0.22,0.24
C151,PBS,0.80,0.85
C218,antiPAS,0.05,0.03
A418,none,0.62,0.61
A419,none,0.47,0.43
A133,PBS,1.54,1.57
A214,PBS,0.30,0.28
C93,PolyA,0.05,0.03
C173,PBS,0.05,0.03
A54,TAR,0.22,0.15
A66,PolyA,1.02,0.84
A89,PolyA,0.43,0.72
A194,PBS,0.91,1.18
C393,none,0.65,0.60
A345,none,1.28,1.27
A47,TAR,0.26,0.13
A378,none,0.21,0.23
C80,PolyA,0.41,0.30
C185,PBS,0.45,0.49
A311,none,1.32,1.19
A205,PBS,0.35,0.32
A73,PolyA,0.05,0.04
A222,antiPAS,0.27,0.24
A21,TAR,0.58,0.61
A59,PolyA,0.36,0.84
A78,PolyA,0.64,0.92
A385,none,0.54,0.53
A398,none,0.27,0.17
A124,none,0.95,1.41
A67,PolyA,0.54,1.00
A428,none,0.10,0.11
C175,PBS,0.05,0.03
C403,none,0.05,0.04
A46,TAR,0.10,0.03
A192,PBS,0.73,0.86
A431,none,0.61,0.55
C143,PBS,0.05,0.03
A421,none,0.36,0.34
C109,U5,0.19,0.08
C57,TAR,0.45,0.03
C287,SL2,0.40,0.31
A77,PolyA,0.74,0.87
A360,none,0.55,0.41
C110,U5,0.15,0.15
A387,none,0.24,0.22
C322,SL3,0.05,0.03
A269,SL1,0.33,0.41
A319,SL3,0.97,0.87
A209,PBS,0.43,0.46
C258,SL1,0.30,0.32
A415,none,0.24,0.19
C144,PBS,0.05,0.03

The opening 3 entries, copied out:

{"position": "A423", "domain": "none", "1G capped low-salt dimer": 0.42, "3G uncapped low-salt monomer": 0.37}
{"position": "A332", "domain": "none", "1G capped low-salt dimer": 0.54, "3G uncapped low-salt monomer": 0.66}
{"position": "A430", "domain": "none", "1G capped low-salt dimer": 0.55, "3G uncapped low-salt monomer": 0.50}